The subject of this data set is T1, CosR (Campylobacter jejuni ATCC 33560).
T1 sequence (looked up): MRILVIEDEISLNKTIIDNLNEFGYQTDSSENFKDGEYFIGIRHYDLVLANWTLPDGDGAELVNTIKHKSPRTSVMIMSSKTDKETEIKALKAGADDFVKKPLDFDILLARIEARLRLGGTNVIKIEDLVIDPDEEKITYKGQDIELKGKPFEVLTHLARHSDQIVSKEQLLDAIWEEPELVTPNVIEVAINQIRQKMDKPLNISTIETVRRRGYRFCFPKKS
The data set is described as follows: EMSA. The settings on record: EMSA: 10 mM bis-Tris pH 7.5, 40 mM KCl, 100 mg/L BSA, 1 mM DTT, 5% glycerol, room temperature 20 min, 6% native gel, SYBR Safe, recombinant protein, residues 1-223, protein details: His-tag (pET-28a), probe letters rebuilt from the primers and the genome. A general note: In EMSA bound probe runs differently from free probe, usually more slowly.

For at least one entry, the source does not settle the construct or the ends of the probe. A weaker result is weaker than the reference pair of the same experiment. Where a protein sequence is shown, tags need not be part of it. At least one verdict was read from the data and is not stated in words by the source.

Take “GTAACATAAGTATTGTGATGTTTTCCATGATGATAGCTAAAAGTTTCAGCACTCAAAAAATCACCAAAAGCATTGGTATCATAAGGTAATTTTCTTAATTCAAACATAATTTCTCCTTTATTTTTAGTTTGATATTGAAAATATTACCATAATAATATTAAAAAGAGTAAAAATATCTTAAAAGCTTAGTGGGTAAAATTTCTATTTATTTAACCTAAATAAAATAAGATACATTTATAATATATTTTAATAATAATTTAAATATATATAAAAAATTATATTTTTTTGAAATATTTTTACAAAAAATATCTATTTGTTGATTTTTAATAATTACAATTAATTTGCAACTAAAAATTATTCATAAGGAGGAAAATATGAAAAAAGTTGTACTAATCTCAGCATTACTAGGTGCTTTCGCAG (double strand) [PsodB (sodB promoter)]”: the binding result runs as follows: (700 nM CosR, 120 ng DNA) “binds”; (ligand V, 0.1-2 mM) “binds more weakly”.
